The source of these data is PMC3561163 (PLoS Neglected Tropical Diseases, 2013).

The structures appear in SMILES notation. The structures given here were assigned with low confidence; some may be wrong. Marks after values point to notes of the source that are not given here.

Assay [1] has as its system PBMCs from YF-17DD vaccinees. Kind of assay: IFN-γ ELISPOT ex vivo, individual peptides (second round). The assay is classed as cell-based, human. The note with it: peptide 10 µg/mL, 16 h.
Assay [2] has as its system CD4^+ depleted PBMCs from YF-17DD vaccinees. Nature of the assay: IFN-γ ELISPOT with CD4-depleted PBMCs. The assay is classed as cell-based, human.
Assay [3] deals with 14 different HLA class II molecules. Kind of assay: HLA class II binding, panel of 14 molecules (promiscuity). Set-up: species or system human.
[4] abbreviates: CD4-depleted PBMCs of responders, (−) = No response.

On to `CSCC[C@H](NC(=O)[C@H](CO)NC(=O)[C@@H](NC(=O)[C@H](C)NC(=O)[C@H](CCSC)NC(=O)[C@@H]1CCCN1C(=O)CNC(=O)[C@H](CC(N)=O)NC(=O)[C@H](Cc1c[nH]c2ccccc12)NC(=O)[C@@H](N)CC(C)C)C(C)C)C(=O)N[C@H](C(=O)NCC(=O)N[C@H](C(=O)N[C@@H](CCSC)C(=O)N[C@@H](CCCNC(=N)N)C(=O)O)C(C)C)[C@@H](C)O`, for which, in assay [1] (IFN-γ ELISPOT), the “Recognition frequency (%) (Table S1)” value stood at 19%. The same compound returned a No. of responders in assay [1] (IFN-γ ELISPOT, total PBMC 2 months to 4 years after YF-17DD vaccination, second round, out of (n) 18-59 volunteers tested per peptide) of 11. Further, the “ELISPOT Max” value in assay [1] (highest response among responders) stood at 485 SFC/10^6 PBMC. Besides, in assay [1] (lowest response among responders), the “ELISPOT Min” value is 17 SFC/10^6 PBMC. Moreover, in assay [2] (setting [4]), the “IFN-γ SFC Average ± STDEV” value was 101±23 SFC (CD4-depleted PBMCs/10^6) and the “IFN-γ SFC Median” value is recorded as 101 SFC (CD4-depleted PBMCs/10^6). The “No. of responders (CD4-depleted PBMCs)” value in assay [2] (PBMCs from 3 volunteers, CD4^+ T-cell depleted, IFN-γ ELISPOT) is recorded as 3. The “Level of peptide promiscuity” value in assay [3] (by number of HLA class II molecules bound (IC50≤1000 nM) out of 14) is reported as “highly promiscuous (highly promiscuous (binding to ≥10 HLA molecules))”. Further, the “Total DR bound” value in assay [3] (number of the 14 HLA-DR molecules bound with IC50 below the cutoff of 1000) was determined as 10.
